According to patent publication US20200207841A1:

Biological target: EDIII-DV2 (Dengue virus serotype 2 (DV2)) (UniProt P14337)
Experiment: competition ELISA, in solution at equilibrium

Question: Which Kd does the source give for 4E11 VL-S60W (antibody) here?
Answer: 6.3 nM
